Results reported in PMC6271933, “Evaluation of the Toxicity of 5-Aryl-2-Aminoimidazole-Based Biofilm Inhibitors against Eukaryotic Cell Lines, Bone Cells and the Nematode Caenorhabditis elegans” (Molecules, 2014).

Assays:
Format in all cases: cell-based
human T-lymphocyte (CEM) = experiment: Cytostatic activity against tumor cell lines (cell number by Coulter counter); conditions: for TI P. aeruginosa CEM: ratio IC50 (CEM) / BIC50 (P. aeruginosa); for TI S. Typhimurium CEM: ratio IC50 (CEM) / BIC50 (S. Typhimurium)
Description: (§1) The IC50 was defined as the compound concentration required to inhibit cell proliferation by 50%. The therapeutic index (TI) was calculated as the ratio of the compound concentration producing toxicity (IC50) to the concentration needed to exert the desired ‘therapeutic’ effect on biofilms of Salmonella and Pseudomonas, indicated by the BIC50 (dose needed to prevent biofilm formation by 50%). The higher the therapeutic index, the broader the safety window of the compound.
(§2) Murine leukemia (L1210), human T-lymphocyte (CEM) and human cervix carcinoma (HeLa) were suspended at 300,000–500,000 cells/mL of culture medium, and 100 µL of a cell suspension was added to 100 µL of an appropriate dilution of the test compounds in 200 µL-wells of 96-well microtiter plates. After incubation at 37 °C for two (L1210), three (CEM) or four (HeLa) days, the cell number was determined using a Coulter counter. The IC50 was defined as the compound concentration required to inhibit cell proliferation by 50%.

[1] = test system: human cervix carcinoma (HeLa); experiment: as above; conditions: for TI P. aeruginosa HeLa: ratio IC50 (HeLa) / BIC50 (P. aeruginosa); for TI S. Typhimurium HeLa: ratio IC50 (HeLa) / BIC50 (S. Typhimurium)
Description: as §1, §2

murine leukemia (L1210) = experiment: as above; conditions: for TI P. aeruginosa L1210: ratio IC50 (L1210) / BIC50 (P. aeruginosa); for TI S. Typhimurium L1210: ratio IC50 (L1210) / BIC50 (S. Typhimurium)
Description: as §1, §2

L1210, CEM and HeLa = experiment: Cytostatic activity against tumor cell lines, statements over all cell lines; conditions: for TI / safety window with respect to Salmonella biofilm inhibition, all cell lines: IC50 / BIC50 Salmonella

| SMILES | TI P. aeruginosa CEM (human T-lymphocyte (CEM)) | TI S. Typhimurium CEM (human T-lymphocyte (CEM)) | TI P. aeruginosa HeLa [1] | TI S. Typhimurium HeLa [1] | TI P. aeruginosa L1210 (murine leukemia (L1210)) | TI S. Typhimurium L1210 (murine leukemia (L1210)) | TI / safety window with respect to Salmonella biofilm inhibition, all cell lines (L1210, CEM and HeLa) | TI with respect to Salmonella and/or Pseudomonas biofilm inhibition (L1210, CEM and HeLa; IC50 / BIC50, both bacterial species) |
| --- | --- | --- | --- | --- | --- | --- | --- | --- |
| CCCCNc1ncc(-c2ccccc2)[nH]1 [compound 18] | 21.0 | 26.4 | 0.6 | 0.8 | 1.5 | 1.8 | – | – |
| Brc1ccc(-c2cnc(NC3CCCC3)[nH]2)cc1 [compound 28] | 93.6 | 55.7 | 4.5 | 2.7 | 4.5 | 2.7 | – | – |
| Nc1ncc(-c2ccc(-c3ccccc3)cc2)n1C1CCCCCC1 [compound 12] | 0.8 | 0.4 | 1.0 | 0.5 | 1.2 | 0.6 | – | – |
| COc1ccc(-c2nc(N)[nH]c2-c2ccccc2)cc1 [compound 30] | – | 0.7 | – | 0.6 | – | 0.8 | – | – |
| CCCCCCCCn1c(-c2ccc(SC)cc2)cnc1N [compound 15, N1-octyl-5-[4-SMePh]-2AI] | 2.6 | 1.1 | 2.3 | 0.9 | 1.5 | 0.6 | – | – |
| Brc1ccc(-c2cnc(NCCCn3cc(C4CC4)nn3)[nH]2)cc1 [compound 40] | – | – | – | – | – | – | higher than 16 | – |
| CCCCCCCCn1c(-c2ccc(F)cc2)cnc1N [compound 14] | 1.5 | 0.7 | 1.8 | 0.8 | 0.7 | 0.3 | – | – |
| CCCCCCCCCCCCCn1c(-c2ccc(Cl)cc2)cnc1N [compound 8] | 0.2 | 0.3 | 0.1 | 0.2 | 0.2 | 0.4 | – | – |
| CCCCCCCCn1c(-c2ccc(-c3ccccc3)cc2)cnc1N [compound 10] | 0.9 | 2.5 | 0.7 | 2.0 | 0.9 | 2.4 | – | – |
| c1ccc(-c2cnc(NC3CCCC3)[nH]2)cc1 [compound 20] | – | – | – | – | – | – | – | below 1 |
| Nc1ncc(-c2ccc(Br)cc2)[nH]1 [compound 5, 5-(p-bromophenyl)-2-aminoimidazole] | – | – | – | – | – | – | toxic at concentrations overlapping with the Salmonella biofilm inhibitory concentrations | – |
| CC(C)CNc1ncc(-c2ccc(Br)cc2)[nH]1 [compound 26] | 255.0 | 105.5 | 18.8 | 7.8 | 26.4 | 10.9 | – | – |
| Nc1ncc(-c2ccc(-c3ccccc3)cc2)[nH]1 [compound 3] | 1.6 | 0.8 | 4.0 | 2.0 | 4.3 | 2.2 | toxic at concentrations overlapping with the Salmonella biofilm inhibitory concentrations | – |
| CCCCCCCCn1c(-c2cccc(Br)c2)cnc1N [compound 16] | 0.2 | 0.9 | 0.2 | 0.7 | 0.2 | 0.6 | – | – |
| CCCCCCCn1c(-c2ccc(-c3ccccc3)cc2)cnc1N [compound 9] | 0.3 | 0.9 | 0.3 | 0.9 | 0.3 | 0.8 | – | – |
| COc1ccc(-c2cnc(NCCCn3cc(-c4ccc(Br)cc4)nn3)[nH]2)cc1 [compound 38] | – | 6.5 | – | 0.2 | – | 0.2 | – | – |
| Nc1ncc(-c2ccc(-c3ccccc3)cc2)n1C1CCCCCCC1 [compound 13] | 1.5 | 0.2 | 2.2 | 0.3 | 2.2 | 0.3 | – | – |
| Nc1nc(-c2ccc(C(F)(F)F)cc2)c(-c2ccc(Cl)cc2)[nH]1 [compound 33] | – | 3.3 | – | 2.4 | – | 3.8 | – | – |
| CCCCCNc1ncc(-c2ccc(Br)cc2)[nH]1 [compound 27] | 36.8 | 121.0 | 1.6 | 5.2 | 1.5 | 4.8 | – | – |
| Nc1ncc(-c2ccc(-c3ccccc3)cc2)n1C1CCCC1 [compound 11] | 0.01 | 0.4 | 0.02 | 1.1 | 0.01 | 0.6 | – | – |
| CC(C)CNc1ncc(-c2ccccc2)[nH]1 [compound 19] | 318.9 | 78.1 | 76.2 | 18.7 | 69.7 | 17.1 | – | – |
| Cc1ccc(-c2nc(N)[nH]c2-c2ccc(Cl)cc2)cc1 [compound 32] | – | 0.8 | – | 0.7 | – | 1.0 | – | – |
| CCCCCCCCn1c(-c2ccccc2)cnc1N [compound 6] | 25.3 | 39.3 | 0.2 | 0.3 | 0.2 | 0.3 | – | – |
| Nc1ncc(-c2ccccc2)[nH]1 [compound 1] | – | – | – | – | – | – | toxic at concentrations overlapping with the Salmonella biofilm inhibitory concentrations | – |
| CCCCCCCCn1c(-c2ccc(Cl)cc2)cnc1N [compound 7] | 89.2 | 60.5 | 1.1 | 0.8 | 1.0 | 0.7 | – | – |
| Nc1nc(-c2ccc(Cl)cc2)c(-c2ccccc2)[nH]1 [compound 31] | – | 1.0 | – | 0.9 | – | 1.3 | – | – |
| COc1cccc(CCn2c(-c3ccc(Cl)c(Cl)c3)cnc2N)c1 [compound 17] | – | <0.02 | – | <0.02 | – | <0.02 | – | – |
| Clc1ccc(-c2cnc(NC3CCCC3)[nH]2)cc1Cl [compound 29] | 19.7 | 27.4 | 10.1 | 14.0 | 9.6 | 13.4 | – | – |

Some compounds share one wording; it may come from a single statement.
